Anti-infective test results gathered from many reports (values: NIAID ChemDB through PubChem).

All rows: growth or infection tests; species: HIV-1; method: cytopathic effect / trypan blue; endpoint: EC50

Conditions beyond the fields shown may differ between rows.

compound	strain	cells	value
NC[C@@H]1C[C@@H](O)[C@H](n2cnc3c(N)ncnc32)O1	IIIB	MT-4	>500 µg/mL
Cc1cn([C@@H]2O[C@H](CO)C3(OS(=O)(=O)C=C3N)[C@H]2O)c(=O)[nH]c1=O	HE	MT-4	>100 µg/mL
CC(C)(C)[Si](C)(C)OC[C@H]1O[C@@H](n2ccc(=O)[nH]c2=O)[C@H](O[Si](C)(C)C(C)(C)C)C12OS(=O)(=O)C=C2N	IIIB	MT-4	>1.6 µg/mL
COC(=O)CCNP(=O)(OC[C@@H]1C=C[C@H](n2cc(C)c(=O)[nH]c2=O)O1)Oc1ccccc1	IIIB	CEM + CEM/0	≥250 µM
Cc1cn([C@@H]2O[C@H](CO[Si](C)(C)C(C)(C)C)C3(O[C@H]3C(N)=O)[C@H]2O[Si](C)(C)C(C)(C)C)c(=O)[nH]c1=O	IIIB	MT-4	>2 µM
Nc1ncnc2c1ncn2[C@H]1CC[C@@H](CO)O1	IIIB	ATH8	<5 µM
Cc1cn([C@H]2C[C@H](N=[N+]=[N-])[C@@H]([C@H](C)O)O2)c(=O)[nH]c1=O	IIIB	MT-4	>200 µg/mL
NC[C@H]1O[C@@H](n2cnc3c(N)ncnc32)C[C@H]1O	IIIB	MT-4	>500 µg/mL
C[C@H](NP(=O)(OC[C@H]1C=C[C@@H](n2ccc3c(N)ncnc32)C1)Oc1ccccc1)C(=O)OCc1ccccc1	IIIB	MT-4	0.175 µM
Nc1ccn([C@H]2CC[C@@H](CO)O2)c(=O)n1	IIIB	MT-4	0.3 µM
COC(=O)[C@H](Cc1ccccc1)NP(=O)(OC[C@@H]1C=C[C@H](n2ccc3c(N)ncnc32)C1)Oc1ccccc1	IIIB	MT-4	29 µM
COC(=O)/C=C1/[C@@H](O[Si](C)(C)C(C)(C)C)[C@H](n2cc(C)c(=O)[nH]c2=O)O[C@@H]1CO[Si](C)(C)C(C)(C)C	IIIB	MT-4	>2 µM
CO[C@H]1O[C@@H](n2ccc(=O)[nH]c2=O)C[C@@H]1N=[N+]=[N-]	KMR100	MT-4	0.009 µM
Cc1cn([C@@H]2O[C@H](CO[Si](C)(C)C(C)(C)C)[C@@H](O)[C@H]2O[Si](C)(C)C(C)(C)C)c(=O)n(CCC(=O)O)c1=O	IIIB	MT-4	>10 µM
C[C@H](NP(=O)(OC[C@@H]1C=C[C@H](n2ccc3c(N)ncnc32)C1)Oc1ccccc1)C(=O)OCc1ccccc1	IIIB	MT-4	>78 µM
Nc1ccn([C@H]2CC[C@@H](CO)O2)c(=O)n1	LAV	MT-2	<1 µM
NC[C@@H]1C[C@H](O)[C@H](n2cnc3c(N)ncnc32)O1	IIIB	MT-4	>500 µg/mL
COC(=O)Cn1c(=O)c(C)cn([C@@H]2O[C@H](CO[Si](C)(C)C(C)(C)C)[C@@H](O)[C@H]2O[Si](C)(C)C(C)(C)C)c1=O	IIIB	MT-4	7.2 µM
COC(=O)CCCCCNP(=O)(OC[C@@H]1C=C[C@H](n2cc(C)c(=O)[nH]c2=O)O1)Oc1ccccc1	IIIB	CEM + CEM/0	≥250 µM
Nc1nc(=O)n([C@H]2C=C[C@@H](CO)O2)cc1Cl	IIIB	MT-4	22 µM
COC(=O)CCCCNP(=O)(OC[C@@H]1C=C[C@H](n2cc(C)c(=O)[nH]c2=O)O1)Oc1ccccc1	IIIB	CEM + CEM/0	>250 µM
Nc1nc2c(ncn2[C@H]2C=C[C@@H](CO)O2)c(=O)[nH]1	IIIB Laboratory strain	MT-4	>5 µM
CC(C)(C)[Si](C)(C)OC[C@H]1O[C@@H](n2ccc(=O)[nH]c2=O)[C@H](O[Si](C)(C)C(C)(C)C)C1(O)C(Cl)C(N)=O	IIIB	MT-4	>2 µM
Nc1ncnc2c1ncn2[C@@H]1O[C@H](CO)C[C@H]1N	IIIB	MT-4	>100 µg/mL
CNOC(=O)Cn1c(=O)c(C)cn([C@@H]2O[C@H](CO[Si](C)(C)C(C)(C)C)[C@@H](O[Si](C)(C)C(C)(C)C)[C@H]2O)c1=O	IIIB	MT-4	>10 µM
COC(=O)[C@H](C)NP(=O)(OC[C@H]1C=C[C@@H](n2ccc3c(N)ncnc32)C1)Oc1ccccc1	IIIB	MT-4	0.091 µM
Nc1nc(N)c2ncn([C@H]3C=C[C@@H](CO)O3)c2n1	IIIB Laboratory strain	MT-4	>1 µM
Nc1ncnc2c1ncn2[C@H]1C[C@H](N)[C@@H](CO)O1	IIIB	MT-4	>100 µg/mL
Nc1ncnc2c1ncn2[C@H]1CC[C@@H](CO)O1	IIIB Laboratory strain	MT-4	6.4 µM
Nc1ncnc2c1ncn2[C@H]1C[C@@H](N)[C@@H](CO)O1	IIIB	MT-4	>500 µg/mL
Nc1ccn([C@H]2CC[C@@H](CO)O2)c(=O)n1	IIIB	PBMC	0.088 µM
COC(=O)/C=C1/[C@@H](O[Si](C)(C)C(C)(C)C)[C@H](n2ccc(=O)[nH]c2=O)O[C@@H]1CO[Si](C)(C)C(C)(C)C	IIIB	MT-4	>2 µM
Nc1ccn([C@H]2C=C[C@@H](CO)O2)c(=O)n1	IIIB	MT-4	0.91 µM
COC(=O)CCNP(=O)(OC[C@@H]1C=C[C@H](n2cc(C)c(=O)[nH]c2=O)O1)Oc1ccccc1	IIIB	MT-4	1.34 µM
COC(=O)[C@H](C)NP(=O)(OC[C@@H]1C=C[C@H](n2ccc3c(N)ncnc32)C1)Oc1ccccc1	IIIB	MT-4	>10 µM
Cc1cc(C)c(S(=O)(=O)OCC2OC3OC4C(CO)OC(OC5C(CO)OC(OC6C(CO)OC(OC7C(CO)OC(OC8C(CO)OC(OC9C(C[n+]%10ccccc%10)OC(OC2C(O)C3O)C(O)C9O)C(O)C8O)C(O)C7O)C(O)C6O)C(O)C5O)C(O)C4O)c(C)c1	KK-1(AIDS)	MT-4	<62.5 µg/mL
COC(=O)CCCNP(=O)(OC[C@@H]1C=C[C@H](n2cc(C)c(=O)[nH]c2=O)O1)Oc1ccccc1	IIIB	CEM + CEM/0	≥250 µM
CCOC(=O)CC1(O)[C@@H](CO[Si](C)(C)C(C)(C)C)O[C@@H](n2ccc(=O)[nH]c2=O)[C@@H]1O[Si](C)(C)C(C)(C)C	IIIB	MT-4	>10 µM
Nc1nc(=O)n([C@H]2CC[C@@H](CO)O2)cc1Cl	IIIB	MT-4	>500 µM

The first 5 rows once more:

compound	strain	cells	value
NC[C@@H]1C[C@@H](O)[C@H](n2cnc3c(N)ncnc32)O1	IIIB	MT-4	>500 µg/mL
Cc1cn([C@@H]2O[C@H](CO)C3(OS(=O)(=O)C=C3N)[C@H]2O)c(=O)[nH]c1=O	HE	MT-4	>100 µg/mL
CC(C)(C)[Si](C)(C)OC[C@H]1O[C@@H](n2ccc(=O)[nH]c2=O)[C@H](O[Si](C)(C)C(C)(C)C)C12OS(=O)(=O)C=C2N	IIIB	MT-4	>1.6 µg/mL
COC(=O)CCNP(=O)(OC[C@@H]1C=C[C@H](n2cc(C)c(=O)[nH]c2=O)O1)Oc1ccccc1	IIIB	CEM + CEM/0	≥250 µM
Cc1cn([C@@H]2O[C@H](CO[Si](C)(C)C(C)(C)C)C3(O[C@H]3C(N)=O)[C@H]2O[Si](C)(C)C(C)(C)C)c(=O)[nH]c1=O	IIIB	MT-4	>2 µM

ECn is the concentration giving n% inhibition of infection, replication or growth.